Anti-infective test results gathered from many reports (values: NIAID ChemDB through PubChem).

Common to all: growth or infection tests; organism: HIV-1; method: luciferase; read-out: inhibition

Blank or dashed fields: not listed here. Neighbouring rows are from separate reports. Percent inhibition refers to the dose given; in toxicity tests it is the harm to the cells.

{"SMILES": "CC(C)=CCOc1c2occc2cc2ccc(=O)oc12", "cells": "HeLa", "dose": "50 µM", "strain": "NL4-3 Recombinant VSV-pseudotyped", "value": "87.5%"}
{"SMILES": "COc1cc(O)c2c(=O)oc3cc(O)cc(C)c3c2c1", "cells": "MT-4", "dose": "60 µM", "setting": "pseudotyped", "strain": "NL4-3", "value": "80%"}
{"SMILES": "Cc1cn([C@H]2C[C@H](N=[N+]=[N-])[C@@H](CO)O2)c(=O)[nH]c1=O", "cells": "Jurkat cells", "dose": "10 µM", "strain": "NL4-3-Luc VSV pseudotyped", "value": "95.5%"}
{"SMILES": "C/C=C(\\C)C(=O)O[C@@H]1[C@@H](OC(=O)c2ccccc2)[C@]2(C)[C@@H](C(C)=O)CC[C@@]23O[C@]32CC[C@H]3C[C@@H](O[C@H]4C[C@@H](OC)C(O[C@@H]5OC(C)C(O[C@@H]6OC(CO)C(O[C@@H]7OC(CO)C(O)[C@H](O)C7O)[C@H](O)C6O)[C@H](OC)C5O)C(C)O4)CC[C@]3(C)[C@@H]12", "cells": "SupT1", "dose": "30 µM", "setting": "pseudotyped", "value": "21.19%"}
{"SMILES": "COc1cc(OC)c2c(O)c3c(=O)cc(C)oc3c(-c3c(OC)cc4cc(O)c5c(=O)cc(C)oc5c4c3OC)c2c1", "cells": "TZM-bl", "dose": "10 µM", "strain": "SF162", "value": "16.25%"}
{"SMILES": "C/C=C(\\C)C(=O)O[C@H]1[C@H]2[C@@H](CC[C@H]3C[C@@H](O[C@H]4C[C@@H](OC)[C@H](O[C@@H]5OC(C)[C@@H](O[C@@H]6OC(CO)[C@@H](O[C@@H]7OC(CO)[C@@H](O)[C@H](O)C7O)[C@H](O)C6O)[C@H](OC)C5O)C(C)O4)CC[C@@]32C)[C@@]2(O)CC[C@H](C(C)=O)[C@@]2(C)[C@@H]1OC(=O)c1ccccc1", "cells": "SupT1", "dose": "30 µM", "setting": "pseudotyped", "value": "32.42%"}
{"SMILES": "O=C1Nc2ccc(Cl)cc2[C@@](C#CC2CC2)(C(F)(F)F)O1", "cells": "SupT1", "dose": "20 µM", "setting": "pseudotyped", "value": "88.54%"}
{"SMILES": "CC(C)=CCc1c(O)c(C(=O)C(C)C)c(O)c2c(-c3ccccc3)cc(=O)oc12", "cells": "Jurkat cells", "dose": "1.25 µM", "strain": "NL4-3 Recombinant", "value": "40%"}
{"SMILES": "CO[C@@H]1C(O)[C@H](O[C@@H]2C(C)O[C@@H](O[C@H]3CC[C@@]4(C)C(=CC[C@]5(O)[C@@H]4[C@H](OC(=O)c4ccccc4)[C@@H](OC(=O)c4ccccc4)[C@]4(C)[C@@H](C(C)=O)CC[C@@]45O)C3)C[C@H]2OC)OC(C)[C@H]1O[C@@H]1OC(CO)[C@@H](O[C@@H]2OC(CO)[C@@H](O)[C@H](O)C2O)[C@H](O)C1O", "cells": "SupT1", "dose": "30 µM", "setting": "pseudotyped", "value": "17.02%"}
{"SMILES": "OC[C@H]1O[C@@H](n2cnc3cc(Cl)c(Cl)cc32)[C@H](O)[C@@H]1O", "cells": "MT-2", "dose": "50 µM", "strain": "NL4-3 Recombinant VSV-pseudotyped", "value": "76%"}
{"SMILES": "CC[C@H](CO)Nc1nc(NCc2ccc(-c3ccccn3)cc2)[n+]2[nH]cc(C(C)C)c2n1", "cells": "U1", "dose": "0.05 µM", "value": "<25%"}
{"SMILES": "C/C=C(\\C)C(=O)O[C@@H]1[C@@H](OC(=O)c2ccccc2)[C@H]2[C@@H](CC[C@H]3C[C@@H](O[C@H]4C[C@@H](OC)[C@H](O[C@@H]5OC(C)[C@@H](O[C@@H]6OC(CO)[C@@H](O[C@@H]7OC(CO)[C@@H](O)[C@H](O)C7O)[C@H](O)C6O)[C@H](OC)C5O)C(C)O4)CC[C@@]32C)[C@@]2(O)CC[C@H](C(C)=O)[C@@]12C", "cells": "SupT1", "dose": "30 µM", "setting": "pseudotyped", "value": "24.15%"}
{"SMILES": "CC[C@H](CO)Nc1nc(NCc2ccc(-c3ccccc3)cc2)[n+]2[nH]cc(C(C)C)c2n1", "cells": "U1", "dose": "0.05 µM", "value": "<5%"}
{"SMILES": "CCCCC/C=C\\C/C=C\\C/C=C\\C/C=C\\CCCC(=O)C(F)(F)F", "cells": "Jurkat cells", "dose": "5 µM", "strain": "NL4-3-Luc VSV pseudotyped", "value": "52%"}
{"SMILES": "COc1cc(OC)c2c(O)c3c(c(-c4c(OC)cc5cc6oc(C)cc(=O)c6c(O)c5c4OC)c2c1)OC(C)(O)CC3=O", "cells": "TZM-bl", "dose": "10 µM", "strain": "SF162", "value": "34.73%"}
{"SMILES": "C/C=C(\\C)C(=O)O[C@@H]1[C@@H](OC(=O)c2ccccc2)[C@]2(C)[C@@H](C(C)=O)CC[C@]2(O)[C@]2(O)CC[C@H]3C[C@@H](O[C@H]4C[C@@H](OC)[C@H](O[C@@H]5OC(C)[C@@H](O[C@@H]6OC(CO)[C@@H](O)[C@H](O)C6O)[C@H](OC)C5O)C(C)O4)CC[C@]3(C)[C@@H]12", "cells": "SupT1", "dose": "30 µM", "setting": "pseudotyped", "value": "29.77%"}

The last 2 rows once more:

SMILES,cells,dose,setting,strain,value
COc1cc(OC)c2c(O)c3c(c(-c4c(OC)cc5cc6oc(C)cc(=O)c6c(O)c5c4OC)c2c1)OC(C)(O)CC3=O,TZM-bl,10 µM,-,SF162,34.73%
C/C=C(\C)C(=O)O[C@@H]1[C@@H](OC(=O)c2ccccc2)[C@]2(C)[C@@H](C(C)=O)CC[C@]2(O)[C@]2(O)CC[C@H]3C[C@@H](O[C@H]4C[C@@H](OC)[C@H](O[C@@H]5OC(C)[C@@H](O[C@@H]6OC(CO)[C@@H](O)[C@H](O)C6O)[C@H](OC)C5O)C(C)O4)CC[C@]3(C)[C@@H]12,SupT1,30 µM,pseudotyped,-,29.77%